A mixed list of measured activities; the numbers were collected in NIAID ChemDB.

Common to all: enzyme or target tests; species: HIV-1; target: Reverse transcriptase; read-out: inhibition

a–b is a range or a potency band. Conditions beyond the fields shown may differ between rows. Inhibition is in % at the dose shown (toxicity tests: loss of growth or viability).

{"smiles": "Cc1cc(C)c2c(c1)N(CC1CC1)C(=O)c1ccnnc1O2", "method": "ELISA", "dose": "33 µM", "value": "32%"}
{"smiles": "O=C1NC(c2c[nH]c3ccc(O)cc23)=C/C1=C1\\C(=O)NC2C=CC=CC12", "method": "RT activity / ELISA", "dose": "200 µM", "value": "32.08%"}
{"smiles": "CCCOC(=O)N1c2ccc([N+](=O)[O-])cc2C=CC1C#N", "method": "nucleotide incorporation", "dose": "50 µM", "value": "81.8%"}
{"smiles": "CCCN1c2ccccc2N(CC)C(=O)c2cc(Cl)nnc21", "dose": "33 µM", "value": "34%"}
{"smiles": "CCCN1C(=O)c2ccnnc2Oc2ccc(OC)cc21", "method": "ELISA", "dose": "330 µM", "value": "55%"}
{"smiles": "O=C(NCCc1ccccc1)NCc1ccoc1", "method": "nucleotide incorporation", "dose": "0.1 µg/mL", "value": "7%"}
{"smiles": "COC(=O)N1c2ccccc2C=CC1C#N", "method": "nucleotide incorporation", "dose": "50 µM", "value": "36.8%"}
{"smiles": "CCCCN1C(=O)c2ccnnc2Oc2ccc(OC)cc21", "method": "ELISA", "dose": "330 µM", "value": "30%"}
{"smiles": "CC(C)COC(=O)N1c2ccc([N+](=O)[O-])cc2C=CC1C#N", "method": "nucleotide incorporation", "dose": "50 µM", "value": "68.6%"}
{"smiles": "N#Cc1csc(NC(=O)NCCc2ccccc2)n1", "method": "nucleotide incorporation", "dose": "1 µg/mL", "value": "93–95%"}
{"smiles": "N#CC1C=Cc2ccccc2N1C(=O)CCl", "method": "nucleotide incorporation", "dose": "50 µM", "value": "≤30%"}
{"smiles": "CCCN1C(=O)c2cc(Cl)nnc2N(CCC)c2ccccc21", "dose": "330 µM", "value": "54%"}
{"smiles": "O=C(NCCc1ccccc1)Nc1cnccn1", "method": "nucleotide incorporation", "dose": "10 µg/mL", "value": "36%"}
{"smiles": "CCOC(=O)N1c2ccc(O)cc2C=CC1C#N", "method": "nucleotide incorporation", "dose": "50 µM", "value": "≤30%"}
{"smiles": "CCCCN1C(=O)c2ccnnc2N(C2CC2)c2ccccc21", "dose": "33 µM", "value": "0%"}
{"smiles": "CCCOC(=O)Nc1ccc2c(c1)C=CC(C#N)N2C(=O)OCCC", "method": "nucleotide incorporation", "dose": "50 µM", "value": "≤30%"}
{"smiles": "COC(=O)C(=O)c1csc(NC(=O)NCCc2ccccc2)n1", "method": "nucleotide incorporation", "dose": "1 µg/mL", "value": "1%"}
{"smiles": "CCCCOC(=O)N1c2ccc(NC(C)=O)cc2C=CC1C#N", "method": "nucleotide incorporation", "dose": "50 µM", "value": "≤30%"}
{"smiles": "O=C1Nc2ccccc2Oc2nnccc21", "method": "ELISA", "dose": "33 µM", "value": "14%"}
{"smiles": "CCCN1c2ccc(C)cc2N(CC)C(=O)c2ccnnc21", "dose": "330 µM", "value": "57%"}
{"smiles": "O=C(NCCc1ccccc1)Nc1nc2ccc(F)cc2s1", "method": "nucleotide incorporation", "dose": "1 µg/mL", "value": "38%"}

A second listing of 2 rows from above:

O=C1NC(c2c[nH]c3ccc(O)cc23)=C/C1=C1\C(=O)NC2C=CC=CC12 ; method: RT activity / ELISA ; dose: 200 µM ; value: 32.08%
CCCOC(=O)Nc1ccc2c(c1)C=CC(C#N)N2C(=O)OCCC ; method: nucleotide incorporation ; dose: 50 µM ; value: ≤30%